Pooled drug test results. Numbers come from NIAID ChemDB, via PubChem.

Common to all: whole-cell or culture tests; species: Mycobacterium avium complex

A number after MIC or MFC names an inhibition level or a share of isolates. An empty or dashed field is not shown. Neighbouring rows are from separate reports.

SMILES | read-out | strain | setting | result
CCc1c(CNc2cc(C)ccc2OC)cnc2nc(N)nc(N)c12 | MIC | NJ211 | - | ≤0.13 µg/mL
C[C@@H]1CN(c2c(F)c(N)c3c(=O)c(C(=O)O)cn(C4CC4)c3c2F)C[C@H](C)N1 | MBC | CIPT 140310030 | - | 3 µg/mL
NCC[C@H](O)C(=O)N[C@@H]1C[C@H](N)[C@@H](O[C@H]2O[C@H](CN)[C@@H](O)[C@H](O)[C@H]2O)[C@H](O)[C@H]1O[C@H]1O[C@H](CO)[C@@H](O)[C@H](N)[C@H]1O | MIC | 905 | - | 8 µg/mL
CO[C@H]1/C=C/O[C@@]2(C)Oc3c(C)c(O)c4c(=O)c(c5oc6cc(N7CCN(CC(C)C)CC7)cc(=O)c6nc5c4c3=C2O)NC(=O)/C(C)=C\C=C\[C@H](C)[C@H](O)[C@@H](C)[C@@H](O)[C@@H](C)[C@H](OC(C)=O)[C@@H]1C | MIC | N-966 (HIV+) | - | 0.0313 µg/mL
CCCCCCCCO[C@@H]1O[C@H]([C@@H](CO)O[C@H]2O[C@H](CO)[C@@H](O)[C@@H]2O)[C@H](O)[C@H]1O | MIC | NJ211 | - | >128 µg/mL
NC(=S)c1ccnc(SCc2c(F)cccc2[N+](=O)[O-])c1 | MIC | MY330/88 | - | 62 µM
COc1cccc(Sc2nc(Cl)nc3nc[nH]c23)c1 | MIC | NJ211 | - | >12.8 µg/mL
CCCNC(=O)OCCn1sc2ccccc2c1=O | MIC | AN1 | - | 16 µg/mL
NC(=S)c1ccnc(SCc2ccccc2)c1 | MIC | MY330/88 | - | 62 µM
CCCCCCCCO[C@@H]1O[C@@H](C(CO[C@@H]2O[C@@H](C(O)CO)[C@H](O)[C@H]2O)OC)[C@H](OC)[C@H]1OC | MIC | NJ3404 | - | >128 µg/mL
CC1(C)N=C(N)N=C(N)N1OCCCOc1cc(Cl)c(Cl)cc1Cl | MIC | DW21 | - | 2 µg/mL
CO[C@H]1/C=C/O[C@@]2(C)Oc3c(C)c(O)c4c(=O)c(c5oc6cc(N7CCN(CC(C)C)CC7)cc(=O)c6nc5c4c3=C2O)NC(=O)/C(C)=C\C=C\[C@H](C)[C@H](O)[C@@H](C)[C@@H](O)[C@@H](C)[C@H](OC(C)=O)[C@@H]1C | MBC | N-444 | - | >4 µg/mL
COc1cccc(CSc2ccccn2)c1 | MIC | NJ211 | - | >12.8 µg/mL
CC[C@H]1OC(=O)[C@H](C)C(=O)[C@H](C)[C@@H](O[C@@H]2O[C@H](C)C[C@H](N(C)C)[C@H]2O)[C@](C)(OC)C[C@@H](C)C(=O)[C@H](C)[C@H]2N(CCCCc3ccccc3)C(=O)O[C@]12C | MIC90 | 24 strains (HIV+) | - | 27 µg/mL
Clc1cccc(Sc2nc(Cl)nc3nc[nH]c23)c1 | MIC | NJ211 | - | >12.8 µg/mL
CCCNC(=O)OCCN=c1ssc2ccccc12 | MIC | AN3 | - | 4 µg/mL
C[C@H]1NCc2cc(-c3ccc4c(=O)c(C(=O)O)cn(C5CC5)c4c3OC(F)F)ccc21 | MIC50 | 6 strains | - | 2 µg/mL
CCN(CC)CNC(=O)c1cnc(N(CC)CC)cn1 | MIC | 101 | - | >128 µg/mL
COc1cc(NCc2cnc3nc(N)nc(N)c3c2C)cc(OC)c1 | MIC | NJ3404 | - | ≤0.13 µg/mL
CCCN(CCC)CNC(=O)c1cnccn1 | MIC | ATCC49601 | - | >128 µg/mL
N#Cc1ccnc(SCc2ccc(Cl)cc2)c1 | MIC | MY330/88 | - | >500 µM
O=C(NCN1CCCC1)c1cnccn1 | MIC | ATCC49601 | - | >128 µg/mL
CC(C)NC(=O)OCCn1sc2ccccc2c1=S | MIC | AN3 | - | 2 µg/mL
Cc1c(CNc2ccc(Cl)cc2)cnc2nc(N)nc(N)c12 | MIC | NJ168 | - | ≤0.13 µg/mL
CO[C@H]1/C=C/O[C@@]2(C)Oc3c(C)c(O)c4c(=O)c(c5oc6cc(N7CCN(CC(C)C)CC7)cc(=O)c6nc5c4c3=C2O)NC(=O)/C(C)=C\C=C\[C@H](C)[C@H](O)[C@@H](C)[C@@H](O)[C@@H](C)[C@H](OC(C)=O)[C@@H]1C | MIC | N-444 | - | 0.06 µg/mL
CCNC(=O)OCCn1sc2ccccc2c1=O | MIC | AN2 | - | >32 µg/mL
COc1cc(NCc2cnc3nc(N)nc(N)c3c2C)cc(OC)c1OC | MIC | NJ3404 | - | ≤0.13 µg/mL
CCCCCCCCO[C@H]1OC([C@@H](COC)O[C@H]2O[C@H]([C@@H](O)CO)[C@@H](O)[C@@H]2O)[C@@H](OC)[C@@H]1OC | MIC | NJ168 | - | >12.8 µg/mL
CC(=O)NC[C@H]1CN(c2ccc(-c3ccncc3)cc2)C(=O)O1 | MIC | 108 | - | 0.8 µg/mL
CCN=c1cc2n(-c3ccc(Cl)cc3)c3ccccc3nc-2cc1Nc1ccc(Cl)cc1 | MBC | - | inside macrophages | >4 µg/mL
COc1cccc(CSc2ncccn2)c1 | MIC | NJ211 | - | >12.8 µg/mL
CCCNC(=O)OCCn1sc2ccccc2c1=S | MIC | ISS 486 | - | 4 µg/mL
CC[C@H]1OC(=O)[C@H](C)[C@@H](O[C@H]2C[C@@](C)(OC)[C@@H](O)[C@H](C)O2)[C@H](C)[C@@H](O[C@@H]2O[C@H](C)C[C@H](N(C)C)[C@H]2O)[C@](C)(O)C[C@@H](C)CN(C)[C@H](C)[C@@H](O)[C@]1(C)O | MIC | F | - | 8 µg/mL
CC[C@H]1OC(=O)[C@H](C)[C@@H](OC2C[C@@](C)(OC)[C@@H](O)[C@H](C)O2)[C@H](C)[C@@H](O[C@@H]2O[C@H](C)C[C@H](N(C)C)[C@H]2O)C(C)(O)C[C@@H](C)/C(=N\OCCCOc2ccccc2)[C@H](C)[C@@H](O)[C@]1(C)O | MIC | 20039 (clarithromycin-susceptible) | - | 1.56 µg/mL
CCCCN(C)CNC(=O)c1cnccn1 | MIC | ATCC49601 | - | >128 µg/mL
NCC[C@H](O)C(=O)N[C@@H]1C[C@H](N)[C@@H](O[C@H]2O[C@H](CN)[C@@H](O)[C@H](O)[C@H]2O)[C@H](O)[C@H]1O[C@H]1O[C@H](CO)[C@@H](O)[C@H](N)[C@H]1O | MIC90 | 25 isolates | - | >64 µg/mL
CC(=O)NC[C@H]1CN(c2ccc(N3CCN(Cc4ccc([N+](=O)[O-])s4)CC3)c(F)c2)C(=O)O1 | MIC50 | 31 isolates | - | 0.25 µg/mL
NNC(=O)c1ccncc1 | MIC | N-325 (HIV-) | - | 1 µg/mL
CC[C@H]1OC(=O)[C@H](C)[C@@H](O[C@H]2C[C@@](C)(OC)[C@@H](O)[C@H](C)O2)[C@H](C)[C@@H](O[C@@H]2O[C@H](C)C[C@H](N(C)C)[C@H]2O)[C@](C)(OC)C[C@@H](C)C(=O)[C@H](C)[C@@H](O)[C@]1(C)O | MIC90 | 19 strains (HIV+) | - | 16 µg/mL
O=c1nc(SCc2ccccn2)c2[nH]cnc2[nH]1 | MIC | NJ211 | - | >12.8 µg/mL
CCCCCCCCO[C@@H]1O[C@H]([C@@H](COCc2ccccc2)O[C@H]2O[C@H](CO)[C@@H](O)[C@@H]2O)[C@H](OCc2ccccc2)[C@H]1OCc1ccccc1 | MIC | NJ3404 | - | >128 µg/mL
N#Cc1ccnc(SCc2cccc(F)c2)c1 | MIC | MY330/88 | - | 250 µM
CC[C@H]1OC(=O)[C@H](C)[C@@H](O[C@H]2C[C@@](C)(OC)[C@@H](OC(C)=O)[C@H](C)O2)[C@H](C)[C@@H](O[C@@H]2O[C@H](C)C[C@H](N(C)C)[C@H]2O)C(C)(O)C[C@@H](C)/C(=N\OCCCOc2ccccc2)[C@H](C)[C@@H](O)[C@]1(C)O | MIC | 20039 (clarithromycin-susceptible) | - | 1.56 µg/mL
COc1cc(NCc2cnc3nc(N)nc(N)c3c2C)cc(C(F)(F)F)c1 | MIC | NJ168 | - | ≤0.13 µg/mL
NC[C@H]1O[C@H](O[C@H]2[C@H](O)[C@@H](O[C@H]3O[C@H](CO)[C@@H](O)[C@H](N)[C@H]3O)[C@H](N)C[C@@H]2N)[C@H](N)C[C@@H]1O | MIC90 | 25 isolates | - | >64 µg/mL
CC1(C)CC(N=c2cc3n(-c4ccc(Cl)c(Cl)c4)c4ccccc4nc-3cc2Nc2ccc(Cl)c(Cl)c2)CC(C)(C)N1 | MIC | - | inside macrophages | 0.5 µg/mL
COc1cccc(CSc2ccncc2)c1 | MIC | NJ211 | - | >12.8 µg/mL
CO[C@H]1/C=C/O[C@@]2(C)Oc3c(C)c(O)c4c(=O)c(c5oc6cc(N7CCN(CC(C)C)CC7)cc(=O)c6nc5c4c3=C2O)NC(=O)/C(C)=C\C=C\[C@H](C)[C@H](O)[C@@H](C)[C@@H](O)[C@@H](C)[C@H](OC(C)=O)[C@@H]1C | MBC | N-444 | - | 1 µg/mL
CC[C@H]1OC(=O)[C@H](C)[C@@H](O[C@H]2C[C@@](C)(OC)[C@@H](O)[C@H](C)O2)[C@H](C)[C@@H](O[C@@H]2O[C@H](C)C[C@H](N(C)C)[C@H]2O)[C@](C)(O)C[C@@H](C)/C(=N\OCOCCOC)[C@H](C)[C@@H](O)[C@]1(C)O | MIC | N-93043 | - | 16 µg/mL
CC[C@H]1OC(=O)[C@H](C)[C@@H](OC(=O)Cc2cccnc2)[C@H](C)[C@@H](O[C@@H]2O[C@H](C)C[C@H](N(C)C)[C@H]2O)C(C)(O)C[C@@H](C)/C(=N\OCCCOc2ccccc2)[C@H](C)[C@@H](O)[C@]1(C)O | MIC | 20096 (clarithromycin-resistant) | - | 6.25 µg/mL
OCCN=c1ssc2ccccc12 | MIC | AN2 | - | 8 µg/mL
CC[C@H]1OC(=O)[C@H](C)[C@@H](O[C@H]2C[C@@](C)(OC)[C@@H](O)[C@H](C)O2)[C@H](C)[C@@H](O[C@@H]2O[C@H](C)C[C@H](N(C)C)[C@H]2O)[C@](C)(O)C[C@@H](C)CN(C)[C@H](C)[C@@H](O)[C@]1(C)O | MIC | SK095 | - | 128 µg/mL
COc1ccc(CSc2cc(C#N)ccn2)cc1 | MIC | MY330/88 | - | 250 µM
CCCCCCCCO[C@@H]1O[C@@H](C(CO[C@@H]2O[C@@H](C(COC(C)=O)OC(C)=O)[C@H](OC(C)=O)[C@H]2OC(C)=O)OC)[C@H](OC)[C@H]1OC | MIC | NJ211 | - | >128 µg/mL
CC[C@H]1OC(=O)[C@H](C)[C@@H](O[C@H]2C[C@@](C)(OC)[C@@H](OC(C)=O)[C@H](C)O2)[C@H](C)[C@@H](O[C@@H]2O[C@H](C)C[C@H](N(C)C)[C@H]2O)C(C)(O)C[C@@H](C)/C(=N\OCCCC2CCCCC2)[C@H](C)[C@@H](O)[C@]1(C)O | MIC | 20039 (clarithromycin-susceptible) | - | 1.56 µg/mL
CN[C@@H]1[C@H](O[C@H]2[C@H](O[C@H]3[C@H](O)[C@@H](O)[C@H](N=C(N)N)[C@@H](O)[C@@H]3N=C(N)N)O[C@@H](C)[C@]2(O)C=O)O[C@@H](CO)[C@H](O)[C@H]1O | MIC | ATCC 35718 | - | 8 µg/mL
COc1cc(-c2ccccc2)ccc1NCc1cnc2nc(N)nc(N)c2c1C | MIC | NJ211 | - | ≤0.13 µg/mL
CC[C@H]1OC(=O)[C@H](C)[C@@H](O[C@H]2C[C@@](C)(OC)[C@@H](O)[C@H](C)O2)[C@H](C)[C@@H](O[C@@H]2O[C@H](C)C[C@H](N(C)C)[C@H]2O)[C@](C)(OC)C[C@@H](C)C(=O)[C@H](C)[C@@H](O)[C@]1(C)O | Median MIC | 20 isolates | - | ≤2 µg/mL
CO[C@H]1/C=C/O[C@@]2(C)Oc3c(C)c(O)c4c(O)c(c5c(c4c3C2=O)NC2(CCN(CC(C)C)CC2)N=5)=NC(=O)/C(C)=C\C=C\[C@H](C)[C@H](O)[C@@H](C)[C@@H](O)[C@@H](C)[C@H](OC(C)=O)[C@@H]1C | MIC50 | 211 strains | - | 0.75 µg/mL
CCN(CC)CCCN=c1cc2n(-c3ccc(Cl)cc3)c3ccccc3nc-2cc1Nc1ccc(Cl)cc1 | MBC | - | inside macrophages | >4 µg/mL
N#Cc1ccnc(SCc2ccccc2)c1 | MIC | MY330/88 | - | 125 µM
Cc1ccc(C)c(CSc2nc(=O)[nH]c3nc[nH]c23)c1 | MIC | NJ211 | - | >12.8 µg/mL
CC(C)NC(=O)OCCN=c1ssc2ccccc12 | MIC | ATCC 15769 | - | 8 µg/mL

Repeating the first 5 entries:

SMILES | read-out | strain | setting | result
CCc1c(CNc2cc(C)ccc2OC)cnc2nc(N)nc(N)c12 | MIC | NJ211 | - | ≤0.13 µg/mL
C[C@@H]1CN(c2c(F)c(N)c3c(=O)c(C(=O)O)cn(C4CC4)c3c2F)C[C@H](C)N1 | MBC | CIPT 140310030 | - | 3 µg/mL
NCC[C@H](O)C(=O)N[C@@H]1C[C@H](N)[C@@H](O[C@H]2O[C@H](CN)[C@@H](O)[C@H](O)[C@H]2O)[C@H](O)[C@H]1O[C@H]1O[C@H](CO)[C@@H](O)[C@H](N)[C@H]1O | MIC | 905 | - | 8 µg/mL
CO[C@H]1/C=C/O[C@@]2(C)Oc3c(C)c(O)c4c(=O)c(c5oc6cc(N7CCN(CC(C)C)CC7)cc(=O)c6nc5c4c3=C2O)NC(=O)/C(C)=C\C=C\[C@H](C)[C@H](O)[C@@H](C)[C@@H](O)[C@@H](C)[C@H](OC(C)=O)[C@@H]1C | MIC | N-966 (HIV+) | - | 0.0313 µg/mL
CCCCCCCCO[C@@H]1O[C@H]([C@@H](CO)O[C@H]2O[C@H](CO)[C@@H](O)[C@@H]2O)[C@H](O)[C@H]1O | MIC | NJ211 | - | >128 µg/mL